Mtb glucose medium: 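Phenotypic screen: M. tuberculosis growth, glucose 7H9 medium, 3 days; the read-out is not stated. Concentration: 500 µM. Higher reads as more growth inhibition (inferred: compounds with an IC50 in retests scored well above the rest). Size under these conditions: about 18,000 compounds, about 1,400 of them at 50% or above in at least one test.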
Mtb cholesterol medium: 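Growth of Mycobacterium tuberculosis over 4 days (cholesterol / DPPC medium with tyloxapol); the read-out is not stated. Tested at 500 µM. Direction is inferred from retests: higher values go with more growth inhibition. Size under these conditions: about 18,000 compounds, about 900 of them at 50% or above in at least one test.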

Values are the deposited “Percent Effect”, in %.
How 0% and 100% were set is not recorded. Most values in the screen are low, and negative values occur.
Many other results are left out here, so strong results are more common than in the screen.
A dash means the value is not listed here; it may have been measured.

| structure | Mtb glucose medium | Mtb cholesterol medium |
|---|---|---|
| `NC1CCC(=O)c2ccccc21` (stereo not shown) | - | 16.49% |
| `CC(C)NC(=O)COC(=O)C1=NN(C)C(=O)CC1` | - | 11.21% |
| `CCN1CC(=O)NC1c1cccc(C#N)c1` (stereo not shown) | 12.83% | - |
| `Cc1cc(C)nc(NC(=O)C(C)C)n1` | -8.5% | - |
| `NCc1ccc(Cl)cn1` | 63.47% | 91.35% |
| `COCC(=O)Nc1cnc(-c2cccnc2)nc1` | - | 5.43% |
| `CCOc1ccc(S(=O)(=O)NCCC(C)N)c(C)c1` (stereo not shown) | 36.8% | 6.892% |
| `NCCc1nc(-c2ccccn2)cs1` | 74.8% | 31.8% |
| `N#CCCN1C(=O)c2cc(Cl)c(Cl)cc2C1=O` | -3.507% | - |
| `CCOc1ccc(C(=O)CCN(C)C)cc1` | 105.1% | 114.8% |
| `CCC1CN(S(C)(=O)=O)c2ccccc2O1` (stereo not shown) | 58.8% | 69.1% |
| `CC1COC2(CCN(C(=O)c3ccc(Cl)s3)CC2)O1` (stereo not shown) | 86.38% | 83.24% |
| `NCc1cccc2occc12` | - | 1.995% |
| `O=C(NC1(c2nnc[nH]2)CCC1)c1ccc(Cl)cn1` | -1.774% | - |
| `NC(=O)c1sccc1NC(=O)c1ncccc1Br` | 33.18% | - |
| `CCS(=O)(=O)NCCNc1ccccc1` | 43.38% | 14% |
| `Cn1cc(CCCO)cn1` | -28.15% | - |
| `CSCC(=O)N(CCC#N)Cc1cccnc1` | - | 9.035% |
| `CCn1cc(NC(=O)NCCCNC(C)=O)cn1` | -6.332% | - |
| `CC1COC2(CCN(c3ccncc3Cl)CC2)O1` (stereo not shown) | -6.658% | - |
| `CNC(=O)c1sccc1S(=O)(=O)N1CCCC1` | 6.664% | - |
| `CC(C)N1CCC(NCCc2ccccn2)CC1` | -10.99% | - |
| `O=C(NCCO)c1cc2c(F)cc(Br)cc2[nH]1` | 64.99% | 58.72% |
| `COc1cc(CNC(=O)Nc2ccnc(C)c2)ccn1` | 55.37% | 49.34% |
| `c1cn(CC2CCNCC2)nn1` | 15.23% | - |
| `CS(=O)(=O)NCCNC(=O)c1ccc2ccccc2n1` | 28.18% | -14.26% |
| `Cc1ccc2c(c1)OC(C)CN2C(=O)c1ccccn1` (stereo not shown) | 53.16% | - |
| `Cc1nn(CCO)c(C)c1CNC(C)Cn1cccn1` (stereo not shown) | - | -12.71% |
| `COc1ccccc1CCC(=O)NCCC1CCOC1` (stereo not shown) | - | 19.77% |
| `Cc1ccc(Cl)cc1NC(=O)CN1CCN(C)CC1` | 41.34% | 35.33% |
| `CCCSCC(=O)NCc1cc(O)nc(C)n1` | 5.538% | - |
| `O=C(CCn1cccn1)N1CCN(c2nccs2)CC1` | 30.95% | 10.26% |
| `CCN1CCN(Cc2ccc3c(c2)OCO3)CC1` | 7.907% | - |
| `O=C(CN1CCOCC1)c1nccs1` | -31.7% | - |
| `NCC1CCN(CCc2ccccc2)C1` (stereo not shown) | 62.23% | 64.95% |
| `C=C(C)COc1cccc(NC(=O)N(C)CCO)c1` | - | 35.94% |
| `Cc1cccc(C(=O)NC2CC(N)C2)n1` (stereo not shown) | 7.328% | - |
| `CN(C)C(=O)CNC(=O)c1sccc1Br` | - | 38% |
| `Cc1nnc(CN)s1` | -10.87% | - |
| `O=C(CN1CCCCC1)Nc1cc(Br)ccn1` | - | -7.32% |
| `CC(Cn1cncn1)Nc1ncccc1F` (stereo not shown) | - | -16.04% |
| `O=C(NCc1c[nH]c2ncccc12)C1CCC1` | 13.6% | - |
| `Cc1noc(C)c1CN(CCO)C1CC1` | - | 9.193% |
| `Cc1ccc(S(=O)(=O)N[C@@H]2CCOC[C@H]2O)s1` | 13.73% | - |
| `COC(=O)CN1CCN(c2ccccc2O)CC1` | 20.03% | -2.877% |
| `NC1CCc2nccn2C1` (stereo not shown) | 2.42% | - |
| `NS(=O)(=O)N1CCN(CC=Cc2ccc(F)cc2)CC1` | 52.88% | 55.94% |
| `COC(=O)N1CCN(c2ccncc2N)CC1` | 12.09% | - |
| `Cc1cc(=O)[nH]c(C(C)(C)N)n1` | 2.392% | - |
| `NC(=O)C1CCN(Cc2ccc(Br)c3cccnc23)C1` (stereo not shown) | 17.31% | - |
| `CC1(C)CC(NC(=O)CC#N)CC(C)(C)N1` | - | -57.16% |
| `OCC1(NCc2ccc(F)c(Cl)c2)CCOCC1` | - | 8.776% |
| `O=C1COCC(=O)N1CCc1ccc(Cl)cc1` | -5.919% | 7.678% |
| `CC(C)(C)c1ccc(N)nc1` | - | -3.732% |
| `CN(CC(=O)Nc1ccc2oc(=O)[nH]c2c1)C1CC1` | - | -5.413% |
| `O=C(Cc1ccc(-n2cnnn2)cc1)N1CCCCO1` | 8.146% | - |
| `CCCNC(=O)C1CN(C(C)=O)c2ccccc2O1` (stereo not shown) | - | -3.273% |
| `CC(CO)(NCCS(C)(=O)=O)C1CCCCC1` (stereo not shown) | 16.7% | - |
| `CC(C)(C)OC(=O)N1CCC(CO)C(F)(F)C1` (stereo not shown) | 34.05% | - |
| `NCCOc1ncc(C(F)(F)F)cc1Cl` | 49.15% | 31.97% |
| `CCO[C@@H]1COCC[C@H]1NC(=O)CCc1csc(N)n1` | - | 6.656% |
| `CC(=O)C1CCCN(C)C1` (stereo not shown) | -10.93% | - |
| `CC(C)CCC(=O)N1CCN(CC(O)C(F)(F)F)CC1` (stereo not shown) | 42.66% | 50.84% |
| `CCCNC(=O)CNC(=O)Cc1c[nH]c2ccccc12` | 17.22% | - |
| `Cn1c(SCCN2CCOCC2)nc2ccsc2c1=O` | 30.17% | - |
| `CS(=O)(=O)NCCC1=CCCCC1` | 49.54% | - |

The values are deposited in ChEMBL (CHEMBL3988442, “University of Dundee, Small-Polar-MMV Screening Library” (2021)).